Pooled drug test results. Numbers come from NIAID ChemDB, via PubChem.

Common to all: host cell toxicity; cells: VERO; measure: CC50

Conditions beyond the fields shown may differ between rows.

O=c1[nH]cnc2c([C@@H]3O[C@H](CO)[C@@H](O)[C@H]3O)[nH]nc12 ; result: 25 µg/mL
CC(C)(C)c1ccc(C(=O)Nc2nc(-c3ccccn3)cs2)cc1 ; read by: luminescence ; result: 26 µM
[N-]=[N+]=N[C@H]1C[C@H](n2cc(C#CI)c(=O)[nH]c2=O)O[C@@H]1CO ; result: 14.4 µM
CSc1ccc(COc2ccc(-c3nc(N)nc(N)n3)cc2)cc1 ; read by: MTT ; result: 457 µM
O=C1CC(SC(=S)N2CCOCC2)C(=O)N1 ; result: 0.6 µg/mL
CCn1cc(C2=NCCO2)c(=O)c2ccc(-c3ccncc3)cc21 ; result: >12.5 µg/mL
CC[C@@H](C(C)C)[C@@H](O)[C@H](O)[C@@H](C)[C@H]1CC[C@H]2[C@@H]3CC(=O)[C@@]4(O)C[C@@H](OC(C)=O)CC[C@]4(C)[C@H]3CC[C@]12C ; read by: MTT ; result: 230 µM
CO[C@H]1/C=C/O[C@@]2(C)Oc3c(C)c(O)c4c(O)c(c(/C=N/N5CCN(C)CC5)c(O)c4c3C2=O)NC(=O)/C(C)=C\C=C\[C@H](C)[C@H](O)[C@@H](C)[C@@H](O)[C@@H](C)[C@H](OC(C)=O)[C@@H]1C ; read by: MTS ; result: >100 µM
NC1=NCN([C@@H]2O[C@H](CO)[C@@H](O)[C@H]2O)C(=O)N1 ; result: 90 µg/mL
O=C(c1ccncc1)n1nc(-c2ccccc2)c(N=Nc2nc3ccc([N+](=O)[O-])cc3s2)c1-c1ccccc1 ; result: >10 µg/mL
CO[C@H]1/C=C/O[C@@]2(C)Oc3c(C)c(O)c4c(O)c(c(/C=N/N5CCN(C)CC5)c(O)c4c3C2=O)NC(=O)/C(C)=C\C=C\[C@H](C)[C@H](O)[C@@H](C)[C@@H](O)[C@@H](C)[C@H](OC(C)=O)[C@@H]1C ; read by: MTS / absorbance ; result: >128 µM
CCCCCCOC(=O)c1cnccn1 ; read by: MTS ; result: >480 µM
CCN1C[C@]2(COC)CC[C@H](OC)[C@]34C1[C@@](O)([C@@H](OC)[C@H]23)[C@@]1(O)C[C@H](OC)C2C[C@@H]4[C@@H]1[C@H]2OC(C)=O ; result: 64 µg/mL
CC[C@@H](C(C)C)[C@@H](O)[C@H](O)[C@@H](C)[C@H]1CC[C@H]2[C@@H]3CC(=O)C4C[C@@H](F)CC[C@]4(C)[C@H]3CC[C@]12C ; read by: MTT ; result: 215 µM
O=C1C(c2c(O)ccc3nocc23)=Nc2ccccc21 ; read by: MTS ; result: >8 µg/mL
COc1ccc(-c2nc(N)nc(N)n2)cc1OCc1ccc(Cl)cc1 ; read by: MTT ; result: 335 µM
CCOC(=O)c1ccc(N2N=C3C(=CC(=O)c4ccccc43)SCC2=O)cc1 ; result: 10 µg/mL
CC[C@H](/C=C/[C@@H](C)[C@H]1CC[C@H]2[C@@H]3CC(=O)[C@@]4(O)C[C@@H](Br)CC[C@]4(C)[C@H]3CC[C@]12C)C(C)C ; read by: MTT ; result: 139 µM
CC(C)(C)c1cc(-c2c3nc(c(-c4cc(C(C)(C)C)c(O)c(C(C)(C)C)c4)c4ccc([nH]4)c(-c4cc(C(C)(C)C)c(O)c(C(C)(C)C)c4)c4nc(c(-c5cc(C(C)(C)C)c(O)c(C(C)(C)C)c5)c5ccc2[nH]5)C=C4)C=C3)cc(C(C)(C)C)c1O ; result: >100 µM
C[C@@H]1C[C@@H]([C@H](O)CC2CC(=O)NC(=O)C2)C(=O)[C@@H](C)C1 ; result: 1.2 µM
Nc1ncnc2c1ncn2C1CC(CCP(=O)(O)O)(C(F)(F)F)CO1 ; read by: MTT ; result: >100 µM
[N-]=[N+]=N[C@H]1C[C@H](n2cc(/C(Cl)=C\I)c(=O)[nH]c2=O)O[C@@H]1CO ; result: 9 µM
Nc1ccc(-c2c3nc(c(-c4ccc(N)cc4)c4ccc([nH]4)c(-c4ccc(N)cc4)c4nc(c(-c5ccc(N)cc5)c5ccc2[nH]5)C=C4)C=C3)cc1 ; result: 1.6 µM
COc1ccc(-n2sc3ncc(-c4ccccc4)cc3c2=O)cc1 ; result: >10 µg/mL
COc1cccc(-c2c3nc(c(-c4cccc(OC)c4)c4ccc([nH]4)c(-c4cccc(OC)c4)c4nc(c(-c5cccc(OC)c5)c5ccc2[nH]5)C=C4)C=C3)c1 ; result: >200 µM
CCN(CC)C(=S)S ; result: 12.4 µg/mL
Oc1ccc(-c2c3nc(c(-c4ccc(O)cc4)c4ccc([nH]4)c(-c4ccc(O)cc4)c4nc(c(-c5ccc(O)cc5)c5ccc2[nH]5)C=C4)C=C3)cc1 ; result: 4.1 µM
CC[C@@H](C(C)C)[C@@H](O)[C@H](O)[C@@H](C)[C@H]1CC[C@H]2[C@@H]3CC(=O)[C@@]4(O)C[C@H](O)[C@H](O)C[C@]4(C)[C@H]3CC[C@]12C ; read by: MTT ; result: 262 µM
NC(=O)c1cn(-c2ccc(Cl)c(Cl)c2)c2cc(-c3ccncc3)ccc2c1=O ; result: >100 µg/mL
CC[C@@H](C(C)C)[C@H](O)[C@@H](O)[C@@H](C)[C@H]1CC[C@H]2[C@@H]3CC(=O)C4C[C@H](F)CC[C@]4(C)[C@H]3CC[C@]12C ; read by: MTT ; result: 301 µM
CO[C@H]1/C=C/O[C@@]2(C)Oc3c(C)c(O)c4c(O)c(c(C5SCCS5)c(O)c4c3C2=O)NC(=O)/C(C)=C\C=C\[C@H](C)[C@@H]2OC(C)(C)O[C@@H]([C@@H](C)[C@H](OC(C)=O)[C@@H]1C)[C@@H]2C ; result: 4.04 µg/mL
Nc1ccn([C@H]2C=C[C@@H](CO)C2)c(=O)n1 ; result: >100 µM
NC(=O)c1[nH]nc([C@@H]2O[C@H](CO)[C@@H](O)[C@H]2O)c1O ; read by: neutral red ; result: 33 µg/mL
CCn1c(C)c(C(N)=O)c(=O)c2ccc(-c3ccncc3)cc21 ; result: >50 µg/mL
NC(=O)C1=C[C@H]2[C@H]3C=C[C@@]2(O)C(=O)O[C@@H]3O1 ; result: 2.12 µg/mL
Cc1ccc(C(=O)Nc2ccc(S(=O)(=O)O)c3cc(S(=O)(=O)O)cc(S(=O)(=O)O)c23)cc1NC(=O)c1cccc(NC(=O)Nc2cccc(C(=O)Nc3cc(C(=O)Nc4ccc(S(=O)(=O)O)c5cc(S(=O)(=O)O)cc(S(=O)(=O)O)c45)ccc3C)c2)c1 ; read by: neutral red ; result: 127 µg/mL
CN(C)c1ccc(/C=N/NC(=O)c2ccncc2)cc1 ; result: >10 µg/mL
CCOC(=O)P(=O)(OCCOCn1cnc2c(=O)[nH]c(N)nc21)OC(C)C ; result: >2481 µM
O=c1[nH]c(=O)n([C@H]2C[C@H](F)[C@@H](CO)O2)cc1/C(Br)=C/I ; result: 29.5 µM
O=C(OCCCOC(=O)c1cnccn1)c1cnccn1 ; read by: MTS ; result: >347 µM
CC(=O)OC[C@H]1O[C@@H](n2ncc(=O)[nH]c2=O)[C@H](OC(C)=O)[C@@H]1OC(C)=O ; read by: neutral red ; result: 80 µg/mL
O=C1C=C(Nc2cnccn2)c2ccccc2C1=O ; result: 0.65 µg/mL
Nc1ncnc2c1ncn2CCOCP(=O)(O)O ; read by: MTT ; result: >100 µM
C[C@]1(/C=C/P(=O)(O)O)CO[C@@H](n2cnc3c(=O)[nH]c(N)nc32)C1 ; result: >100 µM
Nc1ccn([C@H]2CC[C@@H](CO)O2)c(=O)n1 ; result: 50 µM
O=c1[nH]c(=O)n([C@@H]2O[C@H](CO)[C@@H](O)[C@H]2O)cc1F ; read by: neutral red ; result: 0.82 µg/mL
Oc1ccccc1-c1c2nc(c(-c3ccccc3O)c3ccc([nH]3)c(-c3ccccc3O)c3nc(c(-c4ccccc4O)c4ccc1[nH]4)C=C3)C=C2 ; result: 5.3 µM
CCOC(=O)C(NC(=O)c1cccc(Cl)c1)(N1CCN(c2cc3c(cc2F)c(=O)c(C(=O)O)cn3C2CC2)CC1)C(F)(F)F ; result: >10 µg/mL
N#Cc1c(Br)n([C@@H]2O[C@H](CO)[C@@H](O)[C@H]2O)c2ncnc(N)c12 ; result: 10 µg/mL
CCCCc1ccc(-n2c3nc(=O)n(C)c(=O)c-3nc3ccccc32)cc1 ; result: 1.8 µg/mL
COc1cc(-c2nc(N)nc(N)n2)ccc1OCc1ccc(Cl)cc1 ; read by: MTT ; result: 408 µM
c1ccc(-c2oc3ccc4ccccc4c3c2-c2ccc(OCCN3CCCC3)cc2)cc1 ; result: 2.1 µg/mL
CCOCn1c([Se]c2ccccc2)c(F)c(=O)[nH]c1=O ; result: 13.3 µM
Nc1nc(=O)n([C@H]2C=C[C@@H](CO)O2)cc1F ; result: >100 µM
Nc1nc(N)nc(-c2ccc(OCc3ccc(Cl)cc3)cc2)n1 ; read by: MTT ; result: 333 µM
Nc1nc2c(ncn2COC(CO)CO)c(=O)[nH]1 ; result: 1–5 µM
COc1ccc2[nH]c3c(C)c4ccncc4c(C)c3c2c1 ; result: 0.4 µg/mL
O=C1C(c2ccc(O)c3[nH]ccc23)=Nc2ccccc21 ; read by: MTS ; result: 4.6 µg/mL
CC(Oc1ccc(-c2nc(N)nc(N)n2)cc1)c1ccc(F)cc1 ; read by: MTT ; result: 344 µM
Nn1c(Nc2ccccc2)nc2sc3c(c2c1=O)CCC3 ; result: 25 µg/mL
CC[C@@H](C(C)C)[C@H](O)[C@@H](O)[C@@H](C)[C@H]1CC[C@H]2[C@@H]3CC(=O)[C@@]4(O)C[C@@H](OC(C)=O)CC[C@]4(C)[C@H]3CC[C@]12C ; read by: MTT ; result: 461 µM
c1cnc2c(c1)ccc1cccnc12 ; result: <4.11 µg/mL
CC[C@H](/C=C/[C@@H](C)[C@H]1CC[C@H]2[C@@H]3CC(=O)[C@H]4C[C@H](O)[C@H](O)C[C@]4(C)[C@H]3CC[C@]12C)C(C)C ; read by: MTT ; result: 158 µM
Nc1nc(N)nc(-c2ccc(OCc3cccc(Cl)c3)cc2)n1 ; read by: MTT ; result: 387 µM
CCOCn1c([Se]c2ccccc2)c(C)c(=O)[nH]c1=O ; result: 107 µM
Nc1nc(N)nc(-c2ccc(OC(c3ccccc3)c3ccccc3)cc2)n1 ; read by: MTT ; result: 417 µM
CCn1cc(C(N)=O)c(=O)c2ccc(-c3ccncc3)cc21 ; result: >12.5 µg/mL
C=CCn1c2ccccc2c2c(C)c3cnccc3c(C)c21 ; result: 2.11 µg/mL
CCN1C[C@]2(CO)CC[C@H](OC)[C@]34C5CC6[C@H](OC)C5[C@](O)(C[C@@H]6OC)[C@@](O)(C13)[C@@H](OC)[C@H]24 ; result: 32 µg/mL
Nc1cc2c(ncn2[C@@H]2O[C@H](CO)[C@@H](O)[C@H]2O)c(=O)[nH]1 ; read by: neutral red ; result: 30 µg/mL
COc1cccc(COc2ccc(-c3nc(N)nc(N)n3)cc2)c1 ; read by: MTT ; result: 504.1 µM
CCCCn1cc(C(N)=O)c(=O)c2ccc(-c3ccncc3)cc21 ; result: >6.25 µg/mL
c1ccc(-c2csc(Nc3cccnc3)n2)nc1 ; read by: luminescence ; result: >100 µM
CC(=O)Nc1nc(=O)n([C@H]2C=C[C@@H](CO)O2)cc1F ; read by: MTT ; result: 103 µM
Nc1nc(N)nc(-c2ccc(OCc3ccccc3Cl)cc2)n1 ; read by: MTT ; result: 387 µM
NNC(=O)c1ccccn1 ; result: 11 µg/mL
CCn1cc(C(N)=O)c(=O)c2ccc(F)cc21 ; result: >50 µg/mL
CO[C@@]12[C@H](COC(N)=O)C3=C(C(=O)C(C)=C(N)C3=O)N1C[C@H]1[C@@H]2N1C ; result: 0.4 µg/mL
c1ccc(Nc2nc(-c3ccc4ccccc4n3)cs2)nc1 ; read by: luminescence ; result: 6 µM
Cn1cc(NC(=O)c2cc(NC(=O)CCCCCCCCCC(=O)Nc3cc(C(=O)Nc4cc(C(=O)NCCC(N)=[NH2+])n(C)c4)n(C)c3)cn2C)cc1C(=O)NCCC(N)=[NH2+] ; result: 37 µg/mL
COC(=O)c1cnccn1 ; read by: MTS ; result: >724 µM
Cc1cc(C)c2cc(C(=O)NC3CCCCCCC3)[nH]c2c1 ; read by: resazurin ; result: 54 µM
O=C(Nc1nc(-c2ccccn2)cs1)C1CC1 ; read by: luminescence ; result: >100 µM
Nc1ncnc2c1ncn2C1CC(/C=C/P(=O)(O)O)(C(F)(F)F)CO1 ; read by: MTT ; result: >100 µM
Nn1c(Nc2ccccc2)nc2sc3c(c2c1=O)CCCC3 ; result: 50 µg/mL
CCN(CCO)CCNc1ccc(C)c2sc3ccccc3c(=O)c12 ; result: 4.4 µg/mL
Nc1nc(NC2CC2)c2ncn([C@H]3C=C[C@@H](CO)O3)c2n1 ; result: 350 µM
O=c1cc[nH]c(=S)[nH]1 ; result: 100 µg/mL

The first 8 rows once more:

O=c1[nH]cnc2c([C@@H]3O[C@H](CO)[C@@H](O)[C@H]3O)[nH]nc12 ; result: 25 µg/mL
CC(C)(C)c1ccc(C(=O)Nc2nc(-c3ccccn3)cs2)cc1 ; read by: luminescence ; result: 26 µM
[N-]=[N+]=N[C@H]1C[C@H](n2cc(C#CI)c(=O)[nH]c2=O)O[C@@H]1CO ; result: 14.4 µM
CSc1ccc(COc2ccc(-c3nc(N)nc(N)n3)cc2)cc1 ; read by: MTT ; result: 457 µM
O=C1CC(SC(=S)N2CCOCC2)C(=O)N1 ; result: 0.6 µg/mL
CCn1cc(C2=NCCO2)c(=O)c2ccc(-c3ccncc3)cc21 ; result: >12.5 µg/mL
CC[C@@H](C(C)C)[C@@H](O)[C@H](O)[C@@H](C)[C@H]1CC[C@H]2[C@@H]3CC(=O)[C@@]4(O)C[C@@H](OC(C)=O)CC[C@]4(C)[C@H]3CC[C@]12C ; read by: MTT ; result: 230 µM
CO[C@H]1/C=C/O[C@@]2(C)Oc3c(C)c(O)c4c(O)c(c(/C=N/N5CCN(C)CC5)c(O)c4c3C2=O)NC(=O)/C(C)=C\C=C\[C@H](C)[C@H](O)[C@@H](C)[C@@H](O)[C@@H](C)[C@H](OC(C)=O)[C@@H]1C ; read by: MTS ; result: >100 µM

a–b is a range or a potency band. CCn: concentration that lowers growth or viability of the cells by n%.